This data set deals with RD cells. In words: Cytotoxicity, neutral red method, RD cells.

A word on the CC50: it is the concentration at which the toxic effect on the cells reaches its halfway point. A high value points to lower toxicity to the cells. Consider `COc1ccc(CC(C)NCC(O)c2ccc(O)c(NC=O)c2)cc1` (centres unmarked), for which the CC50 is 146 µM.
For `COc1ccc(C[C@@H](C)NC[C@H](O)c2ccc(O)c(NC=O)c2)cc1` the value was 146 µM.

These data come from patent publication US20210244721A1, “SMALL MOLECULE ENTEROVIRUS INHIBITORS AND USES THEREOF” (priority 2020, published 2021).
